In paper PMC9891525 (PLOS Pathogens, 2023):

B1: purified monoclonal antibody d7 (S97Y, D54I, N57H) (antibody, V domains shown)
VH: QVQLVESGGGVVQPGRSLRLSCAASGFTFSNYAMYWVRQAPGKGLEWVAVISYIGSHKYYADSVKGRFTISRDNSKNTLYLQMNSLRTEDTAVYYCASGSDYGDYLLVYWGQGTLVTVSS
VL: QSALTQPASVSGSPGQSITISCTGTSSDVGGYNYVSWYQQHPGKAPKLMIYDVSKRPSGVSNRFSGSKSGNTASLTISGLQSEDEADYYCNSLTSIYTWVFGGGTKLTVL
B2: purified monoclonal antibody d9 (S97Y, D54L, N57H) (antibody, V domains shown)
VH: B1 VH with I54L
VL: B1 VL

Target: SARS-CoV-2 Beta variant RBD (SARS-CoV-2, Beta variant (B.1.351), N501Y | K417N | E484K)
Assay: SPR

Row | Binder | fold lower KD than the original antibody REGN10987 [times]
1 | B1 | 2
2 | B2 | 2

Changes are numbered by the printed parent chain. Names may count otherwise.
